# Zika virus NS2B-NS3: effect of single substitutions on growth in cell culture

Reference: Ni et al. 2025, doi:10.1038/s41467-025-63602-z.

Chain scanned (Zika virus MR766; NS2B from position 2 to 131, then the start of NS3):
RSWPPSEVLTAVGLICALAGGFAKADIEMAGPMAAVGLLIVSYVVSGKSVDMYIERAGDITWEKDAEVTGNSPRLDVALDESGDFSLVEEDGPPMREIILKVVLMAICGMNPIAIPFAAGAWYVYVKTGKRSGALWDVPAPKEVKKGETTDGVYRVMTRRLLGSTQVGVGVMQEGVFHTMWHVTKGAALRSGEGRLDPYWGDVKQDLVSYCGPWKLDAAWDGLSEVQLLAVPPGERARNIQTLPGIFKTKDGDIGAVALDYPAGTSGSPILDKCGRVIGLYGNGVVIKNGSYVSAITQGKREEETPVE

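Libraries of single mutants were passaged as virus pools on Huh-7.5 cells. The effect is the change in frequency of a mutant, normalised to wild type, as a mean of three replicate libraries (two for positions 207-308). The study looked for pockets that tolerate few changes, as a guide for inhibitor design.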

The number is log2 of the effect relative to wild type; negative values mean reduced growth, higher values better tolerance. Each entry names the wild-type residue, its position and the residue put in its place. Stop codons (*) centre on -7 and mark the level of dead virus.

* V12Y: -5.39
* A17*: -7.41
* F22C: 0.12
* F22S: -1.29
* E28Y: -4.12
* P32K: -5.36
* V45N: -5.83
* S46V: -1.92
* Y53M: -5.51
* A57D: -0.08
* T61P: -7.64
* W62S: -7.99
* K64S: -0.38
* T69E: -5.99
* T69I: -6.37
* S72*: -7.38
* A78M: 0.69
* G83V: -4.83
* D84I: -6.19
* S86D: -5.82
* V88A: -6.46
* G92R: -5.36
* I98Q: -5.37
* V103Q: -5.27
* I113M: -2.32
* I115*: -6.56
* P116W: -6.10
* A118G: -2.46
* V124C: -2.42
* Y125P: -7.34
* R131L: -7.56
* G133V: -6.67
* A140*: -5.65
* K142A: -1.76
* D151Q: -3.41
* V153E: -5.63
* R159K: -1.42
* R160K: -2.15
* L162M: -1.75
* L162P: -6.23
* L162Q: -5.08
* H178W: -5.20
* M180A: -5.23
* H182P: -6.56
* R190H: -2.68
* S191I: -3.49
* D197W: -6.46
* D197Y: -3.72
* V203D: -6.37
* Q205N: -5.04
* D206H: -6.19
* Y210E: -6.86
* K215Y: -6.35
* A218V: -3.64
* V231C: -0.83
* R238*: -7.51
* R238L: 2.03
* N239M: -5.48
* T249D: -4.99
* K250R: -0.73
* Y261R: -4.23
* T265F: -3.89
* S268A: -5.65
* C274L: 0.91
* I278Q: -4.89
* G279V: -6.10
* S291V: -4.36
* Q298I: -4.06
* R301E: -5.18
* E308D: 0.74

The first 7 entries again:

For V12Y the result was -5.39.
For A17* the result was -7.41.
For F22C the result was 0.12.
For F22S the result was -1.29.
For E28Y the result was -4.12.
For P32K the result was -5.36.
For V45N the result was -5.83.

Values above 0 are not proof of better growth: six high scorers were tested one by one, five grew less well than wild type and one about as well. The authors count -1 or higher as tolerated. Position 1 is the last residue of NS2A. The region was split into three libraries (1-103, 104-206, 207-308).